Results of unrelated studies side by side (data: NIAID ChemDB).

ICn is the concentration giving n% inhibition. An empty or dashed field is not shown. MIC bound: limit read from a one-dose screen. Percent inhibition refers to the dose given; in toxicity tests it is the harm to the cells. Conditions beyond the fields shown may differ between rows.

SMILES	strain or isolate	tested at	kind	read-out	method	agent	protein	value
CCCCCCCSC(=S)NC1c2ccccc2Oc2ccccc21	H37Rv		culture	MIC bound	BACTEC	Mycobacterium tuberculosis		≤128 µg/mL
c1ccc(Oc2ccc(-c3cncc(N4CCN(c5ccncc5)CC4)n3)cc2)cc1		1 µM	target	inhibition		Cytomegalovirus	UL97 kinase	<50%
O=C(O)C(=O)c1c[nH]c2ccccc12	H37Rv		culture	MIC		Mycobacterium tuberculosis		100 µg/mL
CCOc1cc(=O)cc2n(-c3cc(OCC)c(OC)c(OCC)c3)c3ccccc3nc1-2	H37Rv	12.5 µg/mL	culture	inhibition	BACTEC	Mycobacterium tuberculosis		15%
COc1ccccc1N1CCN(c2cncc(-c3ccsc3)n2)CC1		10 µM	target	inhibition		Cytomegalovirus	UL97 kinase	>15%
O=C1NC(CN2CCCC(O)C2)C(=O)NC1CN1CCCC(O)C1	H37Rv		culture	MIC	BACTEC	Mycobacterium tuberculosis		≥12.5 µg/mL
O/N=C/c1c[nH]c2ccccc12	H37Rv		culture	MIC		Mycobacterium tuberculosis		100 µg/mL
CC(=O)c1ccc(N2CCN(c3cncc(-c4ccccc4Oc4ccccc4)n3)CC2)cc1			target	IC50		Cytomegalovirus	UL97 kinase	<100 µM
NC(=O)c1cc([N+](=O)[O-])cnc1Sc1ncccn1	H37Rv		culture	MIC	BACTEC	Mycobacterium tuberculosis		≥12.5 µg/mL
CC(=O)N(C)c1cccc2cccc(S(=O)(=O)O)c12	H37Rv		culture	MIC		Mycobacterium tuberculosis		>100 µg/mL
COc1ccc2c(c1OC)C(O)N1CCc3cc4c(cc3C1=C2C(=O)c1ccccc1)OCO4	H37Rv		culture	MIC bound	BACTEC	Mycobacterium tuberculosis		>12.5 µg/mL
CSc1ccc(-c2cncc(N3CCN(c4ccc(C(F)(F)F)cc4)CC3)n2)cc1		1 µM	target	inhibition		Cytomegalovirus	UL97 kinase	<50%
OCc1ccc(Br)cc1	H37Rv		culture	MIC		Mycobacterium tuberculosis		100 µg/mL
OCc1ccc(-c2cncc(N3CCN(c4cccc(Cl)c4)CC3)n2)cc1			target	IC50		Cytomegalovirus	UL97 kinase	<10 µM
O=C(O)C1CCCCN1	H37Rv		culture	MIC		Mycobacterium tuberculosis		>100 µg/mL
CSc1ccc(-c2cncc(N3CCN(c4cccc(Cl)c4)CC3)n2)cc1		1 µM	target	inhibition		Cytomegalovirus	UL97 kinase	<50%
O=C(OC1CC(=O)N2CC=Cc3cccc1c32)c1ccccc1	H37Rv		culture	MIC		Mycobacterium tuberculosis		6.25 µg/mL
CN1[C@@H](CC(=O)c2ccccc2)CCC[C@H]1C[C@H](O)c1ccccc1	H37Rv		culture	MIC bound	BACTEC	Mycobacterium tuberculosis		>128 µg/mL
Fc1ccc(N2CCCCC2)c(NC(=S)c2ccncc2)c1		10 µM	host protein	inhibition	kinase activity		eEF-2K	13%
CC[C@H]1[C@@H]2C[C@H]3[C@@H]4N(C)c5ccccc5[C@]45C[C@@H]([C@@H]2[C@H]5O)N3[C@@H]1O	H37Rv		culture	MIC	BACTEC	Mycobacterium tuberculosis		≥128 µg/mL
c1ccsc1	H37Rv		culture	MIC		Mycobacterium tuberculosis		100 µg/mL

The first 2 rows once more:

CCCCCCCSC(=S)NC1c2ccccc2Oc2ccccc21 ; strain or isolate: H37Rv ; kind: culture ; read-out: MIC bound ; method: BACTEC ; agent: Mycobacterium tuberculosis ; value: ≤128 µg/mL
c1ccc(Oc2ccc(-c3cncc(N4CCN(c5ccncc5)CC4)n3)cc2)cc1 ; tested at: 1 µM ; kind: target ; read-out: inhibition ; agent: Cytomegalovirus ; protein: UL97 kinase ; value: <50%